We go through 2 substances from US9676793B2, “Co-crystals of 5-amino-2-oxothiazolo[4,5-d]pyrimidin-3(2H)-yl-5-hydroxymethyl tetrahydrofuran-3-yl acetate and methods for preparing and using the same” (Hoffmann-La Roche Inc., priority 2014, dated 2017).

This data set in a line: Salt factor (S).

Consider Fumaric acid, for which the Salt factor amounted to 1.18.

Take Malonic acid: the Salt factor came out at 1.16.
